Square brackets hold non-standard residues; d marks the D form. Peptide text beside a SMILES is read from it. * marks the point of attachment. 2Nal = N[C@@H](Cc1ccc2ccccc2c1)C(=O)O; Ahx = NCCCCCC(=O)O; StBu = CC(C)(C)S*
Tests used:
[1] = EPR of spin-labeled lipids (n-PCSL) in DPPC/DPPG bilayers; conditions: for hyperfine coupling constant a′N, 5-PCSL / hyperfine coupling constant a′N, 14-PCSL: error 0.2 G; for Order parameter S, 5-PCSL / Order parameter S, 14-PCSL: error <±2%
[2] = EPR of spin-labeled lipids (n-PCSL) in DPPC bilayers; conditions: for hyperfine coupling constant a′N, 5-PCSL / hyperfine coupling constant a′N, 14-PCSL: error 0.2 G; for Order parameter S, 5-PCSL / Order parameter S, 14-PCSL: error <±2%

CC(C)(C)SSC[C@H](NC(=O)CCCCCN)C(=O)N[C@@H](CCCCN)C(=O)N[C@@H](Cc1ccc2ccccc2c1)C(=O)N[C@@H](Cc1ccc2ccccc2c1)C(=O)N[C@@H](CCCCN)C(=O)N[C@@H](CCCCN)C(=O)N[C@@H](CSSC(C)(C)C)C(=O)NCCCCCC(N)=O [P9Nal(SS)] (H-[Ahx]C(StBu)K[2Nal][2Nal]KKC(StBu)[Ahx]-NH2)
hyperfine coupling constant a′N, 5-PCSL ([1]; L/P = 10, 25 °C): 15.4 G
hyperfine coupling constant a′N, 14-PCSL ([1]; L/P = 10, 25 °C): 16.8 G
Order parameter S, 5-PCSL ([1]; L/P = 10, 25 °C): 0.84
Order parameter S, 14-PCSL ([1]; L/P = 10, 25 °C): 0.65
hyperfine coupling constant a′N, 5-PCSL ([1]; L/P = 25, 25 °C): 15.1 G
hyperfine coupling constant a′N, 14-PCSL ([1]; L/P = 25, 25 °C): 15.2 G
Order parameter S, 5-PCSL ([1]; L/P = 25, 25 °C): 0.90
Order parameter S, 14-PCSL ([1]; L/P = 25, 25 °C): 0.55
hyperfine coupling constant a′N, 5-PCSL ([1]; L/P = 30, 25 °C): 15.1 G
hyperfine coupling constant a′N, 14-PCSL ([1]; L/P = 30, 25 °C): 15.0 G
Order parameter S, 5-PCSL ([1]; L/P = 30, 25 °C): 0.89
Order parameter S, 14-PCSL ([1]; L/P = 30, 25 °C): 0.53
hyperfine coupling constant a′N, 5-PCSL ([1]; L/P = 100, 25 °C): 15.3 G
hyperfine coupling constant a′N, 14-PCSL ([1]; L/P = 100, 25 °C): 15.1 G
Order parameter S, 5-PCSL ([1]; L/P = 100, 25 °C): 0.86
Order parameter S, 14-PCSL ([1]; L/P = 100, 25 °C): 0.51
hyperfine coupling constant a′N, 5-PCSL ([2]; L/P = 30, 25 °C): 15.6 G
hyperfine coupling constant a′N, 14-PCSL ([2]; L/P = 30, 25 °C): 16.8 G
Order parameter S, 5-PCSL ([2]; L/P = 30, 25 °C): 0.79
Order parameter S, 14-PCSL ([2]; L/P = 30, 25 °C): 0.60
hyperfine coupling constant a′N, 5-PCSL ([2]; L/P = 50, 25 °C): 15.2 G
hyperfine coupling constant a′N, 14-PCSL ([2]; L/P = 50, 25 °C): 14.8 G
Order parameter S, 5-PCSL ([2]; L/P = 50, 25 °C): 0.86
Order parameter S, 14-PCSL ([2]; L/P = 50, 25 °C): 0.49
hyperfine coupling constant a′N, 5-PCSL ([2]; L/P = 100, 25 °C): 15.2 G
hyperfine coupling constant a′N, 14-PCSL ([2]; L/P = 100, 25 °C): 14.6 G
Order parameter S, 5-PCSL ([2]; L/P = 100, 25 °C): 0.87
Order parameter S, 14-PCSL ([2]; L/P = 100, 25 °C): 0.48
